# Experimental data as given in patent publication US5672682A, “Conotoxin peptide PVIIA” (dated 1997).
# System: goldfish
# Experiment: Bioassay by injection into goldfish
# Settings: even in large doses
smiles,measurement,value
CC[C@H](C)[C@@H]1NC(=O)[C@H](CCCNC(=N)N)NC(=O)[C@@H](N)CSSC[C@@H]2NC(=O)[C@@H]3CSSC[C@@H](C(=O)N[C@H](C(=O)O)C(C)C)NC(=O)[C@H](CCCCN)NC(=O)[C@H](CC(N)=O)NC(=O)[C@H](Cc4ccccc4)NC(=O)[C@H](CCCNC(=N)N)NC(=O)[C@H](CC(N)=O)NC(=O)[C@H](CSSC[C@H](NC(=O)[C@H](CCCCN)NC(=O)[C@H](CCC(N)=O)NC(=O)[C@H](CC(N)=O)NC(=O)[C@@H]4C[C@@H](O)CN4C1=O)C(=O)N[C@@H](Cc1ccccc1)C(=O)N[C@@H](CCC(N)=O)C(=O)N[C@@H](Cc1c[nH]cn1)C(=O)N[C@@H](CC(C)C)C(=O)N[C@@H](CC(=O)O)C(=O)N[C@@H](CC(=O)O)C(=O)N3)NC(=O)[C@H](CCCCN)NC(=O)[C@H](CCCNC(=N)N)NC(=O)[C@H](CO)NC2=O,immobilization or death,did not cause either immobilization or death
